Each binder was assayed against SARS-COV-2 RBD extracellular domain expressed with a C-terminal myc-myc-hexahistidine tag (SARS-COV-2 RBD-mmH) (SARS-CoV-2) (assay: SPR Biacore, mAb captured on anti-hFc, RBD-mmH analyte, 37 C).

Binder | RBD monomer bound at 50 nM (RU) | Kd [nM] | koff [s⁻¹] | kon [M⁻¹ s⁻¹] | t½ [min]
mAb14312 (antibody, V domains shown) VH: EVQLVESGGGLVQPGGSLRLSCAASGFTVSRSYMTWVRQAPGKGLEWVSVIFTGGRTDHADSVKGRFTISRHNSKNTLYLQMNSLRTEDTAVYYCARVAIVGATGAFDIWGQGTMVTVSS VL: QSVLTQPPSVSGAPGQRVTISCTGSSSNIGAGDDVHWYQQLPGTAPKLLIYGNSNRPSGVPDRFSGSKSGTSASLAITGLQAEDEADYYCQSYDSSLSGSVVFGGGTKLTVLG | 221 |  |  |  | 
mAb14260 (antibody, V domains shown) VH: EVQLVESGGGLVQPGGSLRLSCAASGFTFSIYEMNWVRQAPGKGLEWVSYITSSGFTIYYADSVKGRFTISRDNAKNSLYLQMHSLRAEDTAVYYCATSSSSGYYFDYWGQGTLVTVSS VL: not shown | 220 | 0.741 | 0.00144 | 1.95e+06 | 8
mAb14284 (antibody, V domains shown) VH: QITLKESGPTLVKPTQTLTLTCTFSGFSFSTSGVGVGWIRQPPGKTLEWLALIYWDDDKRYSPSLKSRLTITKDTSKNQVVLTMTNMDPVDTATYFCAHHGIPTIFGYWGQGALVTVSS VL: QSALTQPASVSGSPGQSITISCTGTSSDLGVFNYVSWYQQHPGKAPKLMIYEVTNRPSGVSNRFSGSKSGNTASLTISGLQAEDEADYYCSSYTTSSTVFGGGTKLTVLG | 345 |  |  |  | 
mAb14258 (antibody, V domains shown) VH: QLQLQESGPGLVKPSETLSLICTGSGDSISSSHYYWGWIRQPPGKGLEWIGSTYFSGSTYYNPSLKSRVSISVDTSKNQVSLKLISVTAADTAVYYCAREMGATLGDYWGPGTLVTVSS VL: QSVLTQPPSASGTPGQRVTISCSGSSSNIGNNYVYWYQQFPGTTPRLLIYRNNERPSGVPDRFSGSKSGTSASLVISGLRSEDEADYYCAAWDDSLSAHYVFGTGTKVTVLG | 216 |  |  |  | 
mAb14294 (antibody, V domains shown) VH: EVQLVESGGGLVQPGGSLRLSCAASGFTFSNHWMDWVRQAPGKGLVWVSRINSDGSSTDYADSVRGRFTMSRDNAKNTLYLQMSSLRAEDTAVYYCAREGMIFGAVIIPGWYFDLWGRGALVTVSS VL: EIVLTQSPGTLSLSPGERATLSCRASQSVSSSQLAWYQQKPGQAPRLLIYGASSRATGIPDRFSGSGSGTDFTLTISRLEPEDFAVYYCQQYDSFGQGTKLEIKR | 186 |  |  |  | 
mAb14283 (antibody, V domains shown) VH: QVQLQESGPGLVKPSGTLSLTCDVSGGSISSNNWWSWVRQRPGKGLQWIGEIYHNENTNYNPSLKSRVIMSIDKSKNQFSLKLTSVTAADTAVYYCARGDVLDWFDPWGQGTLVTVSS VL: QSALTQPASVSGSPGQSTTISCTGTSSDVGGYNYVSWYQQYPGKAPKLMIYDVTNRPSGVSHRFSGSKSGNTASLTISGLQAEDEADYYCSSYTSSSTVIFGGGTKLTVLG | 217 |  |  |  | 
mAb14235 (antibody, V domains shown) VH: QITLKESGPTLVKPTQTLTLTCTFSGFSLNTGGVGVGWIRQPPGNALEWLALIYWDDDKRYNPSLKTRLTISKDTSKNQVVLTMTNMDPVDTATYFCAHLTIAVIVDFWGQGTLVTVSS VL: QSALTQPASVSGSPGQSITISCTATSSDVGTYNYVSWFQHHPGKAPKLMIYEVTNRPSGVSNRFSGSKSGNTASLTISGLQAEDEADYYCSSYTTTSIVFGGGTKLTVLG | 154 |  |  |  | 
mAb14289 (antibody, V domains shown) VH: QVQLVQSGPEVKKPGASVKVSCKASGYTFTSYAISWVRQAPGQGLEWMGWISAYNGNTNYAQKLQGRVTMTTDTFTSTAYMELRSLRSDDTAVYYCAVPADHITFDYWGQGTLVTVSS VL: EIVLTQSPGTLSLSPGERATLSCRASQSVSSYLAWYQQKPGQAPRLLIHGASSRATGIPDRFSGSGSGTDFTLTISRLEPEDFAVYYCQQYGSSFLTFGGGTKVEIKR | 186 |  |  |  | 
mAb13458 (antibody, V domains shown) VH: EVQLVESGGGLVQPGRSLRLSCAASGFTFDDYAMHWVRQAPGKGLEWVSGISWNSGSIGYADSVKGRFTISRDNAKNSLYLQMNSLRAEDTALYYCAKDIGITTPYWGQGTLVTVSS VL: AIQMTQSPSSLSASVGDRVTITCRASQDIRNDLGWYQQKPGKAPKLLIYSASSLQTGVPSRFSGSGSGTDFTLTISSLHPEDFATYYCLQDYWYTWTFGQGTKVEIKR | 213 |  |  |  | 
mAb13459 (antibody, V domains shown) VH: EVQLVESGGGLVQPGRSLRLSCAASGFTFDDYAMHWVRQAPGKGLEWVSGISWNSGSIGYADSVKGRFTISRDNAKNSLYLQMNSLRAEDTALYYCAKDIGITTPYWGQGTLVTVSS VL: AIQMTQSPSSLSASVGDRVTITCRASQDIRNDLGWYQQKPGKAPKLLIYSASSLQTGVPSRFSGSGSGTDFTLTISSLHPEDFATYYCLQDYNYVWTFGQGTKVEIKR | 299 |  |  |  | 
mAb14313 (antibody, V domains shown) VH: EVQLVESGGGLVQPGRSLRLSCVASGFTFDDSAMHWVRQPPGKGLEWVSGISWNSGIIGYAESVKGRFIISRDNAKNSLFLHMRGLRPEDTAVYYCARDRLELSYYYYGMDVWGQGTTVTVSS VL: QSVLTQPPSASGTPGQRVTISCSGSSSNIGSNTVNWYQQFPGTAPRLLIYSNDQRPSGIPDRFSGSKSGTSASLAISGLQSEDEADYYCSTWDDSLNGAVFGGGTQLTVLG | 273 |  |  |  | 
mAb14247 (antibody, V domains shown) VH: QITLKESGPTLVKPTQTLTLTCTFSGFSLSTSAVGVGWIRQPPGKALEWLALIYWDDDKRYSPSLKSRLTITKDTSKNQLVLTMTNVDPVDTATYYCAHHTIQLIFDYWGQGTLVTVSS VL: QSALTQPASVSGSPGQSITISCTATSSDVGNYNYVSWYQQHPGKAPKLMIYEVSNRPSGVSNRFSGSKSGNTASLTISGLQAEDEADYYCSSYTSSSTPLVFGGGTKLTVLG | 91.2 |  |  |  | 
mAb14315 (antibody, V domains shown) VH: QVQLVQSGAEVKKPGSSVKVSCKASGDTFSTYAINWVRQAPGQGLEWMGRFIHIFGTANYAQKFQGRVTITADESTSTAYMELRSLRSEDTAVYYCARDGVDYGDYRPDYWGQGTLVTVSS VL: EIVLTQSPGTLSLSPGERATLSCRASQSVSSNYLAWYQQKPGQAPRLLIYGASSRATGIPERFSGSGSGTDFTLTISRLEPEDFAVYYCQQYGSSLYTFGQGTKLEIKR | 193 |  |  |  | 
mAb14257 (antibody, V domains shown) VH: EVQLVESGGGLVQPGGSLRLSCAASGFTVSRSYMNWVRQAPGKGLEWVSVVFTGGTTKHTDSVKGRFTISRDNSMNTLYLQMNSLRPEDTAVYYCARVAIVETTGAFDIWGQGTMVTVSS VL: QSVLTQPPSVSGAPGQRVTISCTGTSSNIGADFDVHWYQQFPGTAPKLLIYGHTNRPSGIPDRFSGSKSGTSASLAITGLQAEDEADYYCQSYDSSLSGSVVFGGGTKLTVLG | 242 |  |  |  | 
mAb14255 (antibody, V domains shown) VH: QVQLQESGPGLVKPSETLSLTCTVSGGSISGYYWSWIRQPPGKGLDWIGYIYYRGNTNYNPSLKSRVTISVDTSNNQFSLKLSSVTAADTAVYYCARYGEGYGDASGYHFDYWGQGTLVTVSS VL: QSALTQPASVSGSPGQSITISCTGTSSDVGSYNLVSWYQQHPGKAPKLMIYEDSKRPSGVANPFSGSKSGNTASLTISGLQAEDEADYYCSSYAGSSTWVFGGGTKLTVLG | 206 |  |  |  | 
mAb14286 (antibody, V domains shown) VH: QVQLVQSGAEVKKPGASVKVSCKASGYTFTDYFIHWVRQAPGQGLEWMGWINPTSGGTNYAQKFRGRVTMTRDTSISTAYVELSRLRSDDTALYYCARDLPFYSDTKQFDYWGQGTLVTVSS VL: QSALTQPASVSGYPGQSITISCTGTSSDVGGYNYVSWYQQHPGKAPKLMIFDVSNRPSGVSNRFSGSKSGNTASLTFSGLQAEDEADYYCSSYTSSSTLVFGGGTKLTVLG | 169 |  |  |  | 
mAb14282 (antibody, V domains shown) VH: QVQLVQSGAEVKKPGASVKVSCKASGYIFTDHYMHWVRQAPGQGLEWMGWINPNSGATNYAQNFQGRVTMTRDTSIITVYMELSRLRSDDTAVYYCARDSSPYMIRYTMDVWGQGTTITVSS VL: QSALTQPASVSGSPGQSITISCTGTSSDVGSYNLVSWYQQHPGKAPKLMIYELTKRPSGVSNRFSGSKSGNTASLTISGLQAEDEADYYCSSYRGSVTDVVFGGGTKLTVLG | 186 |  |  |  | 
mAb14281 (antibody, V domains shown) VH: QVQLVQSGADVKKPGASVKVSCKTSGYIFTGYYIHWVRQAPGQGLEWMGWINPNSGGTNSAQKFQGRVTMTRDTSISTVYMELSRLRSDDTAVYYCAKSNSFSVLDYNFDYWGQGTLVTVSS VL: SSELTQDPAVSVALGQTVRITCQGDSLRSYYASWYQQKPGQAPVLVIYDKNNRPSGIPDRFSGSSSGNTASLTITGAQAEDEADYYCNSRDSSRNHLVVFGGGTKLTVLG | 182 |  |  |  | 
mAb14230 (antibody, V domains shown) VH: EVQLVESGGGLIQPGRSLRLSCAASGFTFDDYAMHWVRQAPGKGLEWVSGISWNSVSIDYADSVKGRFTISRDNAKNSLYLQMTSLTVEDTALYYCAKAFGYETLTGSDYFAYWGPGTLVTVSS VL: EIVLTQSPGTLSLSPGERATLSCRASQTVISTYLAWYQQKPGQSPRLLIYGASSRATGIPDRFSGSGSGTDFTLTISRLEPEDFAVYYCQQYGSSPQLTFGGGTKVEIKR | 133 |  |  |  | 
mAb14285 (antibody, V domains shown) VH: QVQLVQSGAEVKKPGASVKVSCKASGYTFTGYFIHWVRQAPGQGLEWMGWISPISGGTNYAQKFQGRVTVTRDTSITTAYMELSRLTSDDTAVYHCAREGGTWKGDFDYWGQGTLVTVSS VL: QSALTQPASVSGSPGQSITISCTGTSSDVESYNLVSWYQQHPGKAPKLMIYEGSKRPSGVSNRFSGSKSGNTASLTISGLQAEDEADYYCSSYAGSSTWVFGGGTKLTVLG | 166 |  |  |  | 
mAb14280 (antibody, V domains shown) VH: QVQLVQSGAEVKKPGASVRVSCKASGYTFTGNYIHWVRQAPGQGLEWMAWINPNSGGKNYAQKFQGRVTLTRDTSVNTAYMELSRLRSDDTAMYYCARDVNYNILTGPGGLWGQGTLVTVSS VL: QSALTQPPSASGSPGQSVTISCTGTSSDVGGYNFVSWYQQHPGKAPKLMIYEVSKRPSGVPDRFSGSKSGNTASLTVSGLQAEDEADYYCSSYAGSNNFVFGTGTKVTVLG | 176 |  |  |  | 
